B1: SVT16-L123Q-GS2-SVA12M2-H6 (bispecific antibody)
chain: QVQLQESGGGSVQAGDSLRLSCAASGRTISNYAMGWFRQAPGKQREFVAAISRSDNTYYTDSVKGRFTISRDNAKNTLYLQMNSLKPEETAVYYCAADPNLMYESKWKYRALEAWGQGTQVTVSSGGGGSGGGSEVQLVESGGGLVQAGGSLRLSCAASGRTFSYYPMAWFRQAPGQEREFVAAIIGADTTYYADSLKGRFTISRDNAKNMVYLQMNSLKPEDTAVYYCAARNTYWSDVYYREGQYTNWGQGTQVTVSSHHHHHH
B2: SVT15-3FW4M-GS2-SVA12M2-H6 (bispecific antibody)
chain: QVQLQESGGGLVQTGGSLRLSCRASGRAFANYHFGWFRQAPGKDREFVASISWKGGSTYYANFALGRFTSSVDRAESSVYLQMSGLTPEDTATYYCAAHDGGDWNYHTGMDYWGQGTQVTVSSGGGGSGGGSEVQLVESGGGLVQAGGSLRLSCAASGRTFSYYPMAWFRQAPGQEREFVAAIIGADTTYYADSLKGRFTISRDNAKNMVYLQMNSLKPEDTAVYYCAARNTYWSDVYYREGQYTNWGQGTQVTVSSHHHHHH
B3: SVT15L-3FW4M (VHH)
VHH: QVQLQESGGGLVQTGGSLRLSCRASGRAFANYHFGWFRQAPGKDREFVASISWKGGSTYYANFALGRFTSSVDRAESSVYLQMSGLTPEDTATYYCAAHDGGDWNYHTGMDYWGQGTQVTVSS
B4: SVT15L-3FW4M (VHH)
VHH: QVQLQESGGGLVQTGGSLRLSCRASGRAFANYHFGWFRQAPGKDREFVASISWKGGSTYYANFALGRFTSSVDRAESSVYLQMSGLTPEDTATYYCAAHDGGDWNYHTGMDYWGQGTQVTVSS
B5: SVT16L (VHH)
VHH: QVQLQESGGGSVQAGDSLRLSCAASGRTISNYAMGWFRQAPGKQREFVAAISRSDNTYYTDSVKGRFTISRDNAKNTLYLQMNSLKPEETAVYYCAADPNLMYESKWKYRALEAWGQGTLVTVSS
B6: SVT16L (VHH)
VHH: QVQLQESGGGSVQAGDSLRLSCAASGRTISNYAMGWFRQAPGKQREFVAAISRSDNTYYTDSVKGRFTISRDNAKNTLYLQMNSLKPEETAVYYCAADPNLMYESKWKYRALEAWGQGTLVTVSS
B7: SVT03L (VHH)
VHH: QVQLQQSGGGSVQTGDSLTLSCTASGGSLNSYFVGWFRQSGGKEREFVSVIARTGRSTSYADSVKGRFTISRDNAANTVFLTMNNLRPDDTAIYYCAAVGRPGVLHLTQSYDYWGQGTQVTVSS
B8: SVG13L (VHH)
VHH: QVQLQESGGGLVQPGGSLRLSCEASGFTFDDYGMSWVRQAPGKGLEWVSSLTPNGGSTYYADSVKGRFTISRDNAKNTLYLQMNSLKPEDTALYYCAKNSYYGAMDYWGKGTLVTVSS
B9: SVT06L (VHH)
VHH: QVQLQESGGGSVQAGGSLRLSCTASELSYDDYTIAWFRRAAGEGRVEDGEGVASITKSYDRAYDNKINYGHSVKGRFTISRDNAKNTVYLQMTDLLPSDTAVYYCALDITPPGGVGASLTEGFLFDYWGQGTQVTVSS
B10: SVT02L (VHH)
VHH: QVQLQQSGGGSVQAGGSLRLSCVGPQRTFSTYGMGWFRQAPGKEREFVAGINYKGDTTYYADSVKGRFTISRDNAKNTLYLQMDSLKPEDRAVYQCARKGGLGGDYRDAGQYRYWGQGTQVTVSS
B11: SVT02L (VHH)
VHH: QVQLQQSGGGSVQAGGSLRLSCVGPQRTFSTYGMGWFRQAPGKEREFVAGINYKGDTTYYADSVKGRFTISRDNAKNTLYLQMDSLKPEDRAVYQCARKGGLGGDYRDAGQYRYWGQGTQVTVSS
B12: SVT16-L123Q-GS2-SVG13M4-H6 (bispecific antibody)
chain: QVQLQESGGGSVQAGDSLRLSCAASGRTISNYAMGWFRQAPGKQREFVAAISRSDNTYYTDSVKGRFTISRDNAKNTLYLQMNSLKPEETAVYYCAADPNLMYESKWKYRALEAWGQGTQVTVSSGGGGSGGGSEVQLVESGGGLVQPGGSLRLSCEASGFTFDDYGMSWVRQAPGKGLEWVSSLTPNGGSTYYADSVKGRFTISRDNAKNTLYLQMNSLKPEDTALYYCAKNSYYGAMDYWGQGTQVTVSSHHHHHH
B13: SVT06-GS2-SVA12M2-H6 (bispecific antibody)
chain: QVQLQESGGGSVQAGGSLRLSCTASELSYDDYTIAWFRRAAGEGRVEDGEGVASITKSYDRAYDNKINYGHSVKGRFTISRDNAKNTVYLQMTDLLPSDTAVYYCALDITPPGGVGASLTEGFLFDYWGQGTQVTVSSGGGGSGGGSEVQLVESGGGLVQAGGSLRLSCAASGRTFSYYPMAWFRQAPGQEREFVAAIIGADTTYYADSLKGRFTISRDNAKNMVYLQMNSLKPEDTAVYYCAARNTYWSDVYYREGQYTNWGQGTQVTVSSHHHHHH

What was measured:
[1] = molecular target: T1, horse albumin (horse Alb) (horse, UniProt P35747 25-607); experiment: bridging ELISA: cAb-TT2-captured TeNT, SDA, biotinylated horse Alb, StrepPO
[2] = molecular target: T1, horse albumin (horse Alb); experiment: BLI (Octet Red96): biotinylated horse Alb on SAX sensor, SDA 100 nM
[3] = molecular target: T1, horse albumin (horse Alb); experiment: bridging ELISA: cAb-TT2-captured TeNT, SDA, biotinylated horse Alb, StrepPO; remark: listed apart in the source
[4] = molecular target: T1, horse albumin (horse Alb); experiment: BLI, 2nd step: horse Alb 100 nM on sensor with biotinylated TeNT and bound SDA
[5] = molecular target: T2, tetanus neurotoxin (TeNT), authentic tetanus holotoxin (Clostridium tetani, UniProt P04958 2-1315); experiment: bridging ELISA: coated dog Alb, SDA, biotinylated TeNT, StrepPO
mAb 6E7 = molecular target: T3, mAb 6E7; experiment: ELISA, coated mAb 6E7 without captured antigen (control)
T3 construct: Anti-TeNT mouse mAb

[6] = molecular target: dog IgG (chrompure dog IgG) (dog); experiment: ELISA: coated dog IgG, anti-his6 PO
[7] = molecular target: T2, tetanus neurotoxin (TeNT), authentic …; experiment: BLI (Octet Red96): biotinylated TeNT on SAX sensor, SDA 100 nM
[8] = molecular target: T2, tetanus neurotoxin (TeNT), authentic …; experiment: bridging ELISA: coated dog Alb, SDA, biotinylated TeNT, StrepPO; remark: listed apart in the source

| Binder | 1st test Signal (nm) [2] | absorbance at 450 nm (mAb 6E7) | maximal absorbance value [6] | further results |
| --- | --- | --- | --- | --- |
| B1 | 0.17 nm |  |  | maximal absorbance value [1]: 1.37 A450; Effective SDA Concentration at A450 0.7 [3]: 2.5 ng/mL; 2nd test Signal (nm) [4]: 0.17 nm |
| B2 |  |  |  | Effective SDA Concentration at A450 0.3 [5]: 11 ng/mL |
| B3 |  | 0.063 |  |  |
| B4 |  |  | 0.05 A450 |  |
| B5 |  | 0.063 |  |  |
| B6 | 0.02 nm |  | 0.06 A450 | 1st test Signal (nm) [7]: 0.11 nm; 2nd test Signal (nm) [4]: 0.01 nm |
| B7 |  | 0.07 |  |  |
| B8 | 0.01 nm |  |  | 1st test Signal (nm) [7]: 0.02 nm |
| B9 |  |  | 0.05 A450 |  |
| B10 |  | 0.067 |  |  |
| B11 |  |  | 0.06 A450 |  |
| B12 | 0.02 nm |  |  | 2nd test Signal (nm) [4]: 0 nm |
| B13 |  |  |  | Effective SDA Concentration at A450 0.3 [5]: 0.8 ng/mL; maximal absorbance value [8]: 1.56 A450 |

— US20240376185A1, “Tetanus prophylaxis” (SMIVET B V, published 2024)
